{"source": "paper PMC4027156", "system": "yabZαE3L (yaba-like disease virus)", "assay": "CD B-to-Z transition", "conditions": "recombinant protein", "note": "Construct, isoform or probe ends are uncertain for at least one entry. At least one verdict rests on a figure or table, not on a statement of the authors."}
{"sequence": "CGCGCGCGCGCG (double strand) [ds-(dCdG)6]", "values": [{"measurement": "binding result", "result": "binds"}]}
